# Experimental data taken from article PMC4756307.
# Molecular target: CodY (6His-CodY) (UniProt A0A0H3MTH0)
# Test: EMSA
# Conditions: EMSA: 1 ug PCR product with 0-2200 ng CodY in binding buffer (Beyotime; composition, pH and salt not given), 30 min at 37 C, native PAGE, ethidium bromide …; recombinant protein; residues 1-262; probe letters rebuilt from the primers and the genome
row,Sequence,binding result
1,TTTTGGTCTTGGGATTACTGGCTTTCGGTCAGTATGATTTTCCAACAGGGATTGGCACTTTAATCGTCGGTGGTTTGATTGTCTCACTCGGAGTTTCTCTTGGTGGTCCAACAGGATATGCCCTAAACCCTGCGCGTGATCTTGGTCCTCGTATCATGCATGCCATCCTTCCATTGAAGCACAAGGGAGATTCGGATTGGGGCTATGCATGGGTACCAGTAGTTGGTCCAATCATCGGAGGCTTGCTTGCGGCTCTCCTTTATGGTCTCATTTTTTAAAAAATATCCTTCTCTAATCAGCAATGGTTAGGGAAGTTTTT (double strand) [glo promoter],binds
2,CCGATTAAGGTTGTGTTGATCAATAACCACTCTCTTGGAATGGTTCGTCAATGGCAGGAATCCTTCTATGAAAAGCGTCGTAGCCAATCTGTCTTTGACGATGAACCGAATTTCCAATTGTTGGCAGAGGCCTACGGAATTAGTCATTATAGTTTTGACAATCCAGCGACTCTAAGTGAAGATATGAAAGTTATCTTAGAAGATAAACCAATGCTCATAGAGGTTCATATTTCTAATCGTGAACATGTTCAACCGATGGTGCCAGCAGGTAAGAGCAATGCAGAAATGTTGGGGGTGAAGTTCA (double strand) [ilvH promoter],binds
